Earlier results as cited in PMC8099913, “FoldAffinity: binding affinities from nDSF experiments” (Scientific Reports, 2021).
pIC50: −log10 of the molar value.

Tested on: pknG
Settings: read-out: reported IC50; ref 1 (supplement); cited from earlier work

For `NC(=O)c1c(NC(=O)C2CC2)sc2c1CCCC2`, the pIC50 is given as 6.41.
